# Assay results taken from publication PMC4012986, “The Dimerization Domain in DapE Enzymes Is required for Catalysis” (PLoS ONE, 2014).
# Tested on: N[C@@H](CCC[C@H](NC(=O)CCC(=O)O)C(=O)O)C(=O)O
# Test: purified protein
# Conditions: 50 mM phosphate pH 7.5, 25 °C, two equivalents Zn(II)
substance,measurement,value
WT-HiDapE (Haemophilus influenzae Rd KW20; T325A),Km,2100 ± 200 µM
same,kcat,4 ± 0.5 s⁻¹
